What was measured:
[1] = target: BANAL-20-52 S ectodomain trimer (residues 1-1204, K982P and V983P, foldon) (bat coronavirus BANAL-20-52); assay: cryo-EM structure
[2] = target: BANAL-20-236 S ectodomain trimer (residues 1-1200, K978P and V979P, foldon) (bat coronavirus BANAL-20-236); assay: cryo-EM structure

| Substance | stoichiometry N [1] | stoichiometry N [2] |
| --- | --- | --- |
| BANAL-20-52 S ectodomain trimer (residues 1-1204, K982P and V983P, foldon) (domain or fragment) | 3 | – |
| BANAL-20-236 S ectodomain trimer (residues 1-1200, K978P and V979P, foldon) (domain or fragment) | – | 3 |

Reference: paper PMC10382498, “Host susceptibility and structural and immunological insight of S proteins of two SARS-CoV-2 closely related bat coronaviruses” (2023)
